Measured values from several laboratories, pooled; numbers as filed in NIAID ChemDB.

Shared fields: cytotoxicity tests; cell line: MRC-5; read-out: CC50

CCn is the concentration with n% toxicity to the cells. Lines come from different laboratories, so protocols vary. Two numbers with a dash give a range or band. An empty or dashed field is not shown.

smiles | method | value
CC(C)Nc1nc2cc(Cl)c(Cl)cc2n1[C@@H]1CO[C@H](C)[C@H]1O | - | 32 µM
CC(C)OC1=NS(=O)(=O)N(Cc2ccc(Cl)c(Cl)c2)c2ccccc21 | - | 2.5 µM
Nc1ccn(C[C@@H](CO)OCP(=O)(O)O)c(=O)n1 | - | 50 µg/mL
Nc1nc2c(ccn2[C@@H]2C[C@H](CO)[C@@H](O)[C@H]2O)c(=O)[nH]1 | - | >100 µg/mL
CCOP(=O)(CCC(COC)OCn1cnc2c(=O)[nH]c(N)nc21)OCC | visual reading | 611 µM
OC[C@H]1OC(c2c(-c3ccccc3)cc3c(Cl)cc(C(F)(F)F)cn23)[C@H](O)[C@@H]1O | MTT | 172 µM
CCO/N=C/c1c(C)cc(OCCC2CCN(c3ccc(C)nn3)CC2)cc1C | neutral red | >0.1 µg/mL
OC[C@H]1OC[C@@H](n2c(Br)nc3cc(Cl)c(Cl)cc32)[C@@H]1O | - | 100 µM
CCCCN1C(=O)c2ccccc2N(CCCc2ccccc2)S1(=O)=O | - | 59.4 µM
CCc1cn([C@H]2C[C@H](O)[C@@H](CO)O2)c(=S)[nH]c1=O | - | >277.6 µM
O=C1c2sccc2N(Cc2ccc(Cl)cc2)S(=O)(=O)N1Cc1ccccc1 | - | 59.6 µM
CC/C(=N\OC)c1ccc(OCCC2CCN(c3ccc(Cl)nn3)CC2)cc1 | visual reading | >1 µg/mL
COCC(CCP(=O)(O)O)OCn1cnc2c(Cl)nc(N)nc21 | visual reading | >2263 µM
Nc1nc(=S)n([C@@H]2O[C@H](CO)[C@@H](O)[C@@H]2O)cc1/C=C/Br | - | >213 µM
O=C1c2sc3ccccc3c2N(Cc2ccc(Cl)cc2)S(=O)(=O)N1Cc1ccc(Cl)cc1 | - | 49.6 µM
O=c1[nH]c(=S)n([C@H]2C[C@H](O)[C@@H](CO)O2)cc1Br | - | 311 µM
O=C1c2ccccc2N(Cc2cccnc2)S(=O)(=O)N1Cc1ccccc1 | - | >66 µM
CCOP(=O)(O)CCCOCn1c(Br)nc2c(=O)[nH]c(N)nc21 | visual reading | 1146 µM
C/C=C1\CNCCC1[C@@](C)(O)c1cc2ccccc2[nH]1 | MTT | 40.8 µg/mL
O=C1c2ccccc2N(Cc2ccc(Cl)cc2)S(=O)(=O)N1CC1CCCCC1 | - | 11.9 µM
O=c1[nH]c(=S)n([C@@H]2O[C@H](CO)[C@@H](O)[C@@H]2O)cc1CCO | - | >213 µM
CCCCc1ccc2cc(-c3ccccc3)cn2c1 | MTT | >500 µM
CO/N=C/c1ccc(OCCC2CCN(c3ccc(Cl)nn3)CC2)cc1 | neutral red | >0.1 µg/mL
Nc1nc2c(ncn2CO[C@@H](CO)CCP(=O)(O)O)c(=O)[nH]1 | visual reading | >3000 µM
CO/N=C(\C)c1ccc(OCCC2CCN(c3ccc(Cl)nn3)CC2)c(OC)c1 | visual reading | >1 µg/mL
CN(C)CCC(NCCNc1ccnc2cc(Cl)ccc12)c1ccccc1 | fluorescence | 0.027 µM
C=Cc1cn([C@@H]2O[C@H](CO)[C@@H](O)[C@@H]2O)c(=S)[nH]c1=O | - | >213 µM
O=c1[nH]c(=S)n([C@H]2C[C@H](O)[C@@H](CO)O2)cc1Cl | - | 360 µM
CCCOC1=NS(=O)(=O)N(Cc2ccc(Cl)cc2)c2ccccc21 | - | 6.8 µM
Clc1cccn2cc(-c3ccccc3)cc12 | MTT | >500 µM
Nc1nc2c(ncn2COC(CO)CO)c(=O)[nH]1 | - | >1000 µM
Nc1ccn(C[C@@H](CO)OCP(=O)(O)O)c(=O)n1 | - | 19 µg/mL
O=[N+]([O-])c1cccc(-c2cc3ccccn3c2)c1 | MTT | 100–200 µM
CCCCN1C(=O)c2ccccc2N(C(=O)c2ccccc2)S1(=O)=O | - | 61.5 µM
O=C1c2sccc2N(Cc2ccc(Cl)c(Cl)c2)S(=O)(=O)N1Cc1ccccc1 | - | 55 µM
c1ccn2cc(-c3ccoc3)cc2c1 | MTT | >500 µM
CC(C)Nc1nc2cc(Cl)c(Cl)cc2n1[C@H]1O[C@@H](CO)[C@H](O)[C@@H]1O | - | 100 µM
CCO/N=C/c1ccc(OCCC2CCN(c3ccc(C)nn3)CC2)cc1O | neutral red | >0.1 µg/mL
Nc1nc2c(ncn2COC(CO)CO)c(=O)[nH]1 | - | >158 µM
CC(C)Nc1nc2cc(Cl)c(Cl)cc2n1[C@@H]1CO[C@H](CO)C1 | - | 65 µM
CCCc1cn([C@H]2C[C@H](O)[C@@H](CO)O2)c(=S)[nH]c1=O | - | >277.6 µM
Nc1nc2c(ncn2COCCO)c(=O)[nH]1 | - | 100 µg/mL
Nc1nc2c(ncn2COC(CO)CO)c(=O)[nH]1 | - | 110 µM
Nc1nc2c(ncn2CCC(CO)CO)c(=O)[nH]1 | - | >300 µM
O=C1c2ccccc2N(Cc2ccccc2Cl)S(=O)(=O)N1Cc1ccccc1Cl | - | >56 µM
COc1ccc2c(c1)[C@@H]1C[C@]1(C(=O)N1[C@@H]3CC[C@H]1CN(C)C3)Cn1c-2c(C2CCCCC2)c2ccc(C(=O)NS(=O)(=O)N(C)C)cc21 | resazurin | 18 µM
Nc1nc(=S)n([C@@H]2O[C@H](CO)[C@@H](O)[C@@H]2O)cc1/C=C/c1ccccc1 | - | >213 µM
Nc1nc2c(ncn2COC(CO)CCP(=O)(O)O)c(=O)[nH]1 | - | >1000 µM
C/C=C1/CN2CC[C@@H]1[C@](C)(O)c1[nH]c3ccccc3c1C2 | MTT | 33.3 µg/mL
N#Cc1ccn2cc(-c3ccccc3)cc2c1 | MTT | 253 µM
CCO/N=C/c1ccc(OCCC2CCN(c3ccc(Cl)nn3)CC2)c(C)c1 | visual reading | >1 µg/mL
COc1ccc(CN2c3ccccc3C(=O)N(Cc3ccccc3)S2(=O)=O)cc1 | - | >61 µM
Nc1nc(=S)n([C@H]2C[C@H](O)[C@@H](CO)O2)cc1Cl | - | 362 µM
CCCO/N=C/c1ccc(OCCCc2cc(C)no2)cc1 | visual reading | >1 µg/mL
COc1ccc(-c2cc3ccccn3c2)cc1OC | MTT | ~400 µM
CCCCCCCCCCc1nccn(C(CO)OC(CO)CO)c1=O | MTT | 93 µM
CCOC1=NS(=O)(=O)N(Cc2ccc(Cl)cc2)c2ccccc21 | - | 7.1 µM
C=Cc1cn([C@H]2C[C@H](O)[C@@H](CO)O2)c(=S)[nH]c1=O | - | >277.6 µM
COC1=NS(=O)(=O)N(Cc2ccc(Cl)cc2)c2ccccc21 | - | 7.4 µM
Cc1cn([C@H]2C[C@H](O)[C@@H](CO)O2)c(=S)nc1N | - | >277.4 µM
O=C1NCc2ccccc2OCC/C=C/c2cncc3ccc1nc23 | neutral red | 1.8 µg/mL

For reference, 4 entries again:

{"smiles": "Nc1nc2c(ncn2COC(CO)CO)c(=O)[nH]1", "value": "110 µM"}
{"smiles": "C/C=C1/CN2CC[C@@H]1[C@](C)(O)c1[nH]c3ccccc3c1C2", "method": "MTT", "value": "33.3 µg/mL"}
{"smiles": "CCCCc1ccc2cc(-c3ccccc3)cn2c1", "method": "MTT", "value": ">500 µM"}
{"smiles": "Nc1nc2c(ncn2COC(CO)CO)c(=O)[nH]1", "value": ">1000 µM"}